{
  "sequences": {"note": "Amino acid sequences for entries named in this document (tags omitted).", "UniProt P0DTC4, whole entry, looked up": "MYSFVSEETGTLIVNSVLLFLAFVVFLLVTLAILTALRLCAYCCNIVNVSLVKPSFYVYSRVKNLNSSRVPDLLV"},
  "source": "paper PMC8190750",
  "about": "(Cell Research, 2021)",
  "key": {"2-E channels": {"target": "2-E channels (Severe acute respiratory syndrome coronavirus 2, UniProt P0DTC4)", "format": "biochemical, SARS-CoV-2", "conditions": "read-out: IC50 Channel inhibition"}},
  "data": [
    {"substance": "Berbamine [BE-12]", "values": [
      {"measurement": "IC50", "setting": "2-E channels", "result": 111, "unit": "µM"},
      {"measurement": "cytotoxicity (in words)", "setting": "Vero E6 cells", "result": "minor cytotoxicity"},
      {"measurement": "IC50", "setting": "Vero E6 cells; African green monkey", "result": 29.9, "unit": "µM"}
    ]}
  ]
}
